PubChem BioAssay AID504761 | Drosophila RNAi Screening Center, 2011
Purpose: 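Insect host genes that dengue virus relies on to spread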 (primary screen). Cells: D.Mel-2 cells from Drosophila. Reagent: long dsRNA against Drosophila genes. Treatment: infection with dengue virus type 2; dose and infection time not stated. Detection: 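Cells stained for dengue envelope protein and imaged; percent of infected cells per well on duplicate plates, ranked by infection, with stained nuclei counted for cell number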. Direction: infection score: higher = more virus-infected cells; cell count: higher = more cells in the well. Rule for the call: 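Low infection ranks in the two replicates (chance level up to 0.065) followed by a retest with a 1.5-fold or larger significant decrease, p below 0.05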. Meaning of the calls: active = confirmed: knock-down lowers infection; inactive = not picked or not confirmed.
In all, the deposit lists about 22,000 reagents; below is an unselected part of those that have a named target and a result. In the full data, 116 (0.52%) are marked active. 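Calls depend on retest data that are not deposited; infection was ranked per plate without normalising between plates; the unit of the infection score is not given.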 Raw values are not corrected between plates. A number with no mark means an inactive call. Names joined by + are all predicted targets of the reagent. The record does not give: the amount of reagent, the time to read-out.

| infection score, replicate 1 | infection score, replicate 2 | cell count, replicate 1 | cell count, replicate 2 | gene | DRSC id |
| --- | --- | --- | --- | --- | --- |
| 2.33 | 2.36 | 6148 | 6133 | Blos2 | DRSC10147 |
| 1.04 | 4.87 | 6165 | 6074 | Blos2 | DRSC25642 |
| 17.2 | 23 | 4445 | 5686 | CG1227 | DRSC12534 |
| 5.55 | 0.79 | 6562 | 6321 | CG1227 | DRSC25952 |
| 1.98 | 5.35 | 6501 | 6711 | CG6005 | DRSC15945 |
| 12.4 | 9.38 | 5320 | 6439 | CG30375 | DRSC06834 |
| 27.7 | 4.96 | 5976 | 7325 | CG42813 + CG42814 | DRSC15939 |
| 2.86 | 3.4 | 6982 | 1442 | CG42813 + CG42814 | DRSC15940 |
| 1.84 | 1.62 | 6647 | 6373 | Kal1 (Kallmann syndrome 1) | DRSC15983 |
| 2.74 | 1.28 | 6137 | 6578 | CG9624 | DRSC16523 |
| 1.25 | 1.65 | 6223 | 6915 | Pdhb (Pyruvate dehydrogenase E1 beta subunit) | DRSC14420 |
| 9.61 | 4.42 | 6232 | 5810 | Pdhb (Pyruvate dehydrogenase E1 beta subunit) | DRSC29695 |
| 13.9 | 6.38 | 6970 | 1349 | Ctr1B + Poxm | DRSC16245 |
| 10.2 | 30.6 | 6330 | 5059 | Ssk (Snakeskin) | DRSC10756 |
| 0.77 | 2.1 | 5698 | 6036 | CG11902 | DRSC14434 |
| 6.04 | 5.23 | 2035 | 1894 | CG11902 | DRSC28805 |
| 4.18 | 8.53 | 6460 | 6937 | unc-104 (uncoordinated-104) | DRSC07710 |
| 12.9 | 17.9 | 3940 | 2949 | Hel25E (Helicase at 25E) | DRSC03342 |
| 18.4 | 11.6 | 2412 | 3230 | Hel25E (Helicase at 25E) | DRSC28348 |
| 21.9 | 47.5 | 6141 | 4423 | CG11475 | DRSC04113 |
| 5.6 | 3.1 | 6405 | 6327 | CG11475 | DRSC24420 |

In a second layout: entries from further up.
infection score, replicate 1	infection score, replicate 2	cell count, replicate 1	cell count, replicate 2	gene	DRSC id
2.86	3.4	6982	1442	CG42813 + CG42814	DRSC15940
1.84	1.62	6647	6373	Kal1 (Kallmann syndrome 1)	DRSC15983
2.74	1.28	6137	6578	CG9624	DRSC16523
1.25	1.65	6223	6915	Pdhb (Pyruvate dehydrogenase E1 beta subunit)	DRSC14420
9.61	4.42	6232	5810	Pdhb (Pyruvate dehydrogenase E1 beta subunit)	DRSC29695
13.9	6.38	6970	1349	Ctr1B + Poxm	DRSC16245

Further entries:
| infection score, replicate 1 | infection score, replicate 2 | cell count, replicate 1 | cell count, replicate 2 | gene | DRSC id |
| --- | --- | --- | --- | --- | --- |
| 1.64 | 2.14 | 6709 | 5850 | CG42335 | DRSC14597 |
| 2.97 | 3.52 | 6872 | 6228 | CG42335 | DRSC15892 |
| 2.28 | 2.55 | 6748 | 6039 | CG42335 | DRSC25666 |
| 2.06 | 2.31 | 6112 | 6439 | CG15894 | DRSC18098 |
| 5.79 | 13.1 | 5974 | 5590 | rho-4 (rhomboid-4) | DRSC19761 |
| 2.85 | 7.08 | 5716 | 5762 | rho-4 (rhomboid-4) | DRSC19762 |
| 3.21 | 7.68 | 6289 | 5846 | sens-2 (senseless-2) | DRSC02613 |
| 4.87 | 6.68 | 5940 | 5662 | sens-2 (senseless-2) | DRSC25026 |
| 5.25 | 2.48 | 6727 | 6532 | CG32986 | DRSC02509 |
| 14.3 | 7.78 | 5911 | 2043 | CG1941 | DRSC06802 |
| 5.53 | 8.81 | 6783 | 5845 | CG7881 | DRSC04898 |
| 6.69 | 6.1 | 6221 | 6464 | CG15337 | DRSC18020 |
| 0.85 | 5.78 | 5634 | 7523 | CG15337 | DRSC22778 |
| 8.84 | 3.79 | 5704 | 6517 | CG13766 | DRSC02271 |
| 16.1 | 22.4 | 4221 | 5039 | CG13766 | DRSC29049 |
| 6.38 | 2.42 | 5969 | 5461 | Wsck | DRSC13682 |
| 13.4 | 9.3 | 5011 | 3539 | Wsck | DRSC28781 |
| 6.93 | 4.83 | 6712 | 6814 | CG32579 | DRSC19872 |
